Measured values taken from US10195189B2, “2-phenethenyltetrahydro isoquinolines useful as anti-HIV compounds” (priority 2014, dated 2019).

The compounds below were run on HIV-1 NL4-3 viral clone expressing Renilla luciferase. Conditions: ratio of CC50 over EC50.
Format: cell-based
Protocol: Protocol for MT-2 Spread Assay
The present assay was used to screen candidate antiviral compounds by quantification of virus spread and production over several rounds of infection in vitro. MT-2, a HIV-1 permissive human T-cell line, was seeded in microtiter plates and was simultaneously treated with serially diluted compound and inoculated with a HIV-1 NL4-3 viral clone engineered to express Renilla luciferase in place of Net Following treatment, the culture was incubated for 96 hours. After the incubation, media was collected and used to estimate relative infectivity on the indicator cell line, TZM-bl. Additionally, viral spread was quantified by measuring luciferase activity via a commercially available luciferase substrate. In parallel, MT-2 cells were seeded and inoculated with mock virus in the presence of serially diluted compound. Compound toxicity was quantified 96 hours after treatment with AlamarBlue.
MT-2 (NIH Aids reagent program 237) cells were grown and maintained in an incubator at 37° C. with 5% CO2 using a basal medium of RPMI-1640 supplemented with 10% FBS. Cells were seeded in 100 μl at 2×10^4 cells/well in white walled 96-well microtiter plates. Candidate compounds were 3-fold serially diluted in the appropriate solvent. Solvent without compound was used as a no drug reference. Cells were inoculated at a multiplicity of 0.027 with an HIV-1 NL4-3 virus stock engineered to express Renilla luciferase in place of Net Diluted virus stock was first added to serially diluted compound. Compound and virus were delivered to cells in an equal volume (100 μl) and treated cultures were returned to the incubator for 96 hours. In parallel, plates for cytotoxicity estimates were prepared in the same way except cells were plated in clear walled 96-well microtiter plates and were mock infected.
At 96 hours post infection, 100 μl virus containing culture supernatant was collected from the treated and infected cultures and serially diluted in DMEM supplemented with 10% FBS, 1% sodium pyruvate, and 20 μg/ml DEAE dextran. One day prior, TZM-bl (ATCC PTA-5659) were cultured in basal medium of DMEM supplemented with 10% FBS and 1% sodium pyruvate and seeded at 7.5×10^3 cells/well in black walled 96-well microtiter plates. Diluted virus containing culture supernatant was transferred to TZM-bl cultures and incubated for 48 hours at 37° C. with 5% CO2. Infected TZM-bl cultures were fixed for 5 minutes with a 1% formaldehyde/0.2% gluteraldehyde/PBS solution then washed three times with PBS. Fixed cultures were incubated at 37° C. for 25 minutes with a 200 μg/ml MUG (4-Methylumbelliferyl β-D-[…])/DMEM solution. The reaction was stopped with an equal volume of 1M sodium carbonate and read at 360, 449 nm on fluorescence plate reader (Biotek).
At 96 hours post infection, 100 μl of culture supernatant was removed from the treated and infected cultures and EnduRen live cell substrate (Promega) was added at a final concentration 1.3 μg/ml. Cells were incubated for 1.5 hours at 37° C. with 5% CO2 then read on a luminescence plate reader (Biotek).
For all assays, data was imported into Accelrys Assay Explorer 3.3. In Assay Explorer, % inhibition (antiviral or cytotoxicity) was calculated using the solvent control as a reference by the following equation: 1−(SignalCompound/SignalReference). The % Inhibition and compound concentration data was fitted using the following 4-parameter logistic model (Assay Explorer model 42):
[formula] where X is compound concentration, Y is % inhibition, D is the maximum % Inhibition (constrained to 100%), C is IC50 value or inflection point, B is the hill slope, and A is the minimum % inhibition (constrained to 0%). The IC50 value is reported as the EC50 or CC50 depending on the assay endpoint. EC50 represents the effective concentration at which virus replication is inhibited by 50 percent. CC50 represents the concentration that results in the death of 50 percent of the host cells. […]

SMILES | SI
COc1cc2c(cc1OCc1ccccc1)CCNC2/C=C/c1ccc2cn[nH]c2c1 (stereo not drawn) [BT, 6-Benzyloxy-1-[(E)-2-(1H-indazol-6-yl)vinyl]-7-methoxy-1,2,3,4-tetrahydroisoquinoline] | 13.02
COc1cc(F)c(/C=C/C2NCCc3cc(OCc4ccccc4)c(OC)cc32)c(F)c1 (stereo not drawn) [BU, 6-Benzyloxy-1-[(E)-2-(2,6-difluoro-4-methoxy-phenyl)vinyl]-7-methoxy-1,2,3,4-tetrahydroisoquinoline] | 10.4
COc1cc(C)c(/C=C/C2NCCc3cc(OCc4ccccc4)c(OC)cc32)cc1C (stereo not drawn) [BV, 6-Benzyloxy-7-methoxy-1-[(E)-2-(4-methoxy-2,5-dimethyl-phenyl)vinyl]-1,2,3,4-tetrahydroisoquinoline] | 8.7
COc1cc2c(cc1OCc1ccccc1)CCNC2/C=C/c1cc(C(C)C)c(OC)cc1C (stereo not drawn) [BW, 6-Benzyloxy-1-[(E)-2-(5-isopropyl-4-methoxy-2-methyl-phenyl)vinyl]-7-methoxy-1,2,3,4-tetrahydroisoquinoline] | 2.2
COc1cc2c(cc1OCc1ccccc1)CCNC2/C=C/c1cc(OCC(C)(C)C)c(OC)cc1C (stereo not drawn) [BX, 6-Benzyloxy-1-[(E)-2-[5-(2,2-dimethylpropoxy)-4-methoxy-2-methyl-phenyl]vinyl]-7-methoxy-1,2,3,4-tetrahydroisoquinoline] | 9.71
COc1cc2c(cc1OCc1ccccc1)CCNC2/C=C/c1cc(OCC2CCNCC2)c(OC)cc1C (stereo not drawn) [BY, 6-Benzyloxy-7-methoxy-1-[(E)-2-[4-methoxy-2-methyl-5-(4-piperidylmethoxy)phenyl]vinyl]-1,2,3,4-tetrahydroisoquinoline] | 5
COc1cc2c(cc1OCc1ccccc1)CCNC2/C=C/c1ccc(S(C)(=O)=O)cc1 (stereo not drawn) [BZ, 6-Benzyloxy-7-methoxy-1-[(E)-2-(4-methylsulfonylphenyl)vinyl]-1,2,3,4-tetrahydroisoquinoline] | 1
COc1ccc(/C=C/C2NCCc3cc(OCc4ccccc4)c(OC)cc32)c(OC)n1 (stereo not drawn) [CA, 6-Benzyloxy-1-[(E)-2-(2,6-dimethoxy-3-pyridyl)vinyl]-7-methoxy-1,2,3,4-tetrahydroisoquinoline] | 23.9
COc1cc2c(cc1OCc1ccccc1)CCNC2/C=C/c1ccc2c(c1)CCCO2 (stereo not drawn) [CB, 6-Benzyloxy-1-[(E)-2-chroman-6-ylvinyl]-7-methoxy-1,2,3,4-tetrahydroisoquinoline] | 3.5
COc1cc2c(cc1OCc1ccccc1)CCNC2/C=C/c1c(C)ccc2c1OCCC2 (stereo not drawn) [CC, 6-Benzyloxy-7-methoxy-1-[(E)-2-(7-methylchroman-8-yl)vinyl]-1,2,3,4-tetrahydroisoquinoline] | 4.6
COc1cc(C)c(/C=C/C2NCCc3cc(OCc4ccccc4)c(OC)cc32)cc1OCCCCN=[N+]=[N-] (stereo not drawn) [CD, 1-[(E)-2-[5-(4-azidobutoxy)-4-methoxy-2-methyl-phenyl]vinyl]-6-benzyloxy-7-methoxy-1,2,3,4-tetrahydroisoquinoline] | 18.5
COc1cc2c(cc1OCc1ccccc1)CCNC2/C=C/c1cc2c(cc1C)OCCC2 (stereo not drawn) [CE, 6-Benzyloxy-7-methoxy-1-[(E)-2-(7-methylchroman-6-yl)vinyl]-1,2,3,4-tetrahydroisoquinoline] | 38.9
COc1cc2c(cc1OCc1ccccc1)CCNC2/C=C/c1cccc2c1OCCC2 (stereo not drawn) [CF, 6-Benzyloxy-1-[(E)-2-chroman-8-ylvinyl]-7-methoxy-1,2,3,4-tetrahydroisoquinoline] | 18.6
COc1cc2c(cc1OCc1ccccc1)CCNC2/C=C/c1cc2c(cc1C)OCC2 (stereo not drawn) [CG, 6-Benzyloxy-7-methoxy-1-[(E)-2-(6-methyl-2,3-dihydrobenzofuran-5-yl)vinyl]-1,2,3,4-tetrahydroisoquinoline] | 34.3
COc1cc2c(cc1OCc1ccccc1)CCNC2/C=C/c1cc2ccccc2n1C(=O)OC(C)(C)C (stereo not drawn) [CH, tert-Butyl 2-[(E)-2-(6-benzyloxy-7-methoxy-1,2,3,4-tetrahydroisoquinolin-1-yl)vinyl]indole-1-carboxylate] | 6
COc1cc2c(cc1OCc1ccccc1)CCNC2/C=C/c1cn(C(=O)OC(C)(C)C)c2ccccc12 (stereo not drawn) [CI, tert-Butyl 3-[(E)-2-(6-benzyloxy-7-methoxy-1,2,3,4-tetrahydroisoquinolin-1-yl)vinyl]indole-1-carboxylate] | 21.7
COc1cc2c(cc1OCc1ccccc1)CCNC2/C=C/c1c[nH]c2ccccc12 (stereo not drawn) [CJ, 6-Benzyloxy-1-[(E)-2-(1H-indol-3-yl)vinyl]-7-methoxy-1,2,3,4-tetrahydroisoquinoline] | 13.9
CCOC(=O)CCCOc1cc(/C=C/C2NCCc3cc(OCc4ccccc4)c(OC)cc32)ccc1OC (stereo not drawn) [CV, Ethyl 4-[5-[(E)-2-(6-benzyloxy-7-methoxy-1,2,3,4-tetrahydroisoquinolin-1-yl)vinyl]-2-methoxy-phenoxy]butanoate] | 20
COc1cc2c(cc1OCc1ccccc1)CCNC2/C=C/c1ccccc1NC(=O)OC(C)(C)C (stereo not drawn) [CW, tert-Butyl N-[2-[(E)-2-(6-benzyloxy-7-methoxy-1,2,3,4-tetrahydroisoquinolin-1-yl)vinyl]phenyl]carbamate] | 4.3
COc1cc2c(cc1OCc1ccccc1)CCNC2/C=C/c1ccccc1N (stereo not drawn) [CX, 2-[(E)-2-(6-benzyloxy-7-methoxy-1,2,3,4-tetrahydroisoquinolin-1-yl)vinyl]aniline] | 14
COc1cc2c(cc1OCc1ccccc1)CCNC2/C=C/c1ccc(OC)c(C(F)(F)F)c1 (stereo not drawn) [CY, (E)-6-(Benzyloxy)-7-methoxy-1-(4-methoxy-3-(trifluoromethyl)styryl)-1,2,3,4-tetrahydroisoquinoline] | 5.7
COc1cc2c(cc1OCc1ccccc1)CCNC2/C=C/c1cc(C)c(OC)c(C(F)(F)F)c1 (stereo not drawn) [CZ, (E)-6-(benzyloxy)-7-methoxy-1-(4-methoxy-3-methyl-5-(trifluoromethyl)styryl)-1,2,3,4-tetrahydroisoquinoline] | 1.8
COc1cc2c(cc1OCc1ccccc1)CCNC2/C=C/c1ccccc1C(F)(F)F (stereo not drawn) [DA, (E)-6-(benzyloxy)-7-methoxy-1-(2-(trifluoromethyl)styryl)-1,2,3,4-tetrahydroisoquinoline] | 4.3
COc1cc2c(cc1OCc1ccccc1)CCNC2/C=C/c1cccc(C(F)(F)F)c1 (stereo not drawn) [DB, (E)-6-(benzyloxy)-7-methoxy-1-(3-(trifluoromethyl)styryl)-1,2,3,4-tetrahydroisoquinolin] | 3.7
COc1cc2c(cc1OCc1ccccc1)CCNC2/C=C/c1ccccc1N(C)C (stereo not drawn) [DC, (E)-2-(2-(6-(benzyloxy)-methoxy-1,2,3,4-tetrahydroisoquinolin-1-yl)vinyl)-N,N-dimethylamine] | 12.1
COCCOc1ccccc1/C=C/C1NCCc2cc(OCc3ccccc3)c(OC)cc21 (stereo not drawn) [DE, (E)-6-(benzyloxy)-7-methoxy-1-(2-(2-methoxyethoxy)styryl)-1,2,3,4-tetrahydroisoquinoline] | 6.9
COc1cc2c(cc1OCc1ccccc1)CCNC2/C=C/c1ccc2c(c1)OC(F)(F)O2 (stereo not drawn) [DF, (E)-6-(benzyloxy)-1-(2-(2,2-difluorobenzo[d][1,3]dioxol-5-yl)vinyl)-7-methoxy-1,2,3,4-tetrahydroisoquinoline] | 1.8
COc1ccccc1/C=C/C1NCCc2cc(OCc3ccccc3)c(OC)cc21 (stereo not drawn) [DG, (E)-6-(benzyloxy)-7-methoxy-1-(2-methoxystyryl)-1,2,3,4-tetrahydroisoquinoline] | 4.1
COc1cc2c(cc1OCc1ccccc1)CCNC2/C=C/c1ccccc1N1CCOCC1 (stereo not drawn) [DH, (E)-4-(2-(2-(6-(benzyloxy)-7-methoxy-1,2,3,4-tetrahydroisoquinolin-1-yl)vinyl)phenyl)morpholine] | 3.4
COc1ccc2cc(/C=C/C3NCCc4cc(OCc5ccccc5)c(OC)cc43)ccc2c1 (stereo not drawn) [DI, (E)-6-(benzyloxy)-7-methoxy-1-(2-(6-methoxynaphthalen-2-yl)vinyl)-1,2,3,4-tetrahydroisoquinoline] | 9.2
